This is an account of results in patent publication US20140235490.

Data set [1] has as its target T1, #116: [4-Mu]TRIDEANQRATK[DABCYL]-Nle, BoNT/A cleavable peptide.
T1 chain: TRIDEANQRATKX

Data set [2] has as its target T2, #115: [5-Fam]TRIDEANQRATK[DABCYL]-Nle, BoNT/A cleavable peptide.
T2 chain: TRIDEANQRATKX

By KM is commonly meant the substrate concentration at which the rate is half of its maximum.

B1: Proteinase K (protein)
chain: AAQTNAPWGLARISSTSPGTSTYYYDESAGQGSCVYVIDTGIEASHPEFEGRAQMVKTYYYSSRDGNGHGTHCAGTVGSRTYGVAKKTQLFGVKVLDDNGSGQYSTIIAGMDFVASDKNNRNCPKGVVASLSLGGGYSSSVNSAAARLQSSGVMVAVAAGNNNADARNYSPASEPSVCTVGASDRYDRRSSFSNYGSVLDIFGPGTSILSTWIGGSTRSISGTSMATPHVAGLAAYLMTLGKTTAASACRYIADTANKGDLSNIPFGTVNLLAYNNYQA
Turning to B1, the KM in data set [1] turned out to be 4.48 µM; in data set [2], 5.46 µM.

B2: Thermolysin (protein)
chain: ITGTSTVGVGRGVLGDQKNINTTYSTYYYLQDNTRGNGIFTYDAKYRTTLPGSLWADADNQFFASYDAPAVDAHYYAGVTYDYYKNVHNRLSYDGNNAAIRSSVHYSQGYNNAFWNGSQMVYGDGDGQTFIPLSGGIDVVAHELTHAVTDYTAGLIYQNESGAINEAISDIFGTLVEFYANKNPDWEIGEDVYTPGISGDSLRSMSDPAKYGDPDHYSKRYTGTQDNGGVHINSGIINKAAYLISQGGTHYGVSVVGIGRDKLGKIFYRALTQYLTPTSNFSQLRAAAVQSATDLYGSTSQEVASVKQAFDAVGVK
For the protein B2, the KM amounted to 12.7 µM in data set [1] and 8.16 µM in data set [2].
